# Mutational tolerance of the Zika virus NS2B-NS3 protease

The measurements come from Ni et al. 2025 (doi:10.1038/s41467-025-63602-z).

Protein: NS2B and the protease part of NS3 of Zika virus strain MR766. Positions count along the chain below; NS2B spans 2-131 and NS3 starts at 132.
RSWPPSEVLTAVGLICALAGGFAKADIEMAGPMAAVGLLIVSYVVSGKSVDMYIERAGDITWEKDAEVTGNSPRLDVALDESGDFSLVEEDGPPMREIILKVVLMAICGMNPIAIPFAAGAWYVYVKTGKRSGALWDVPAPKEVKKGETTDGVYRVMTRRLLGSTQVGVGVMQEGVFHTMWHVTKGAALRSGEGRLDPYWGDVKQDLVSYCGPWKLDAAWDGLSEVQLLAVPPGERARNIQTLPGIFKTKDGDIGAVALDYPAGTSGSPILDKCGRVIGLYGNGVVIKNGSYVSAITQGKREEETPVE

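Pools of virus carrying all single amino acid changes were selected for growth in Huh-7.5 cells. Sequencing of three replicate libraries (two for positions 207-308) was averaged into one effect per change.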

The number is log2 of the effect relative to wild type; negative values mean reduced growth, higher values better tolerance. Substitutions are written as wild-type residue, site number, new residue. All changes here are to cysteine.

* G47C: -4.60
* K48C: -5.31
* S49C: -1.64
* V50C: -0.44
* D51C: -3.32
* M52C: -2.38
* Y53C: -4.11
* I54C: -5.47
* E55C: -1.91
* R56C: -5.03
* A57C: 0.12
* G58C: -1.37
* D59C: -2.58
* I60C: -5.85
* T61C: -0.43
* W62C: -6.98
* E63C: -2.41
* K64C: -0.33
* D65C: -3.00
* A66C: -0.20
* E67C: -3.83
* V68C: -2.93
* T69C: -4.86
* G70C: -6.12
* N71C: -2.81
* S72C: -3.66
* P73C: -6.05
* R74C: 0.41
* L75C: -6.50
* D76C: 0.15
* V77C: -5.85
* A78C: -0.21
* L79C: -5.63
* D80C: -5.86
* E81C: -5.19
* S82C: -1.27
* G83C: -2.91
* D84C: -5.93
* F85C: -3.98
* S86C: -2.56
* L87C: -6.06
* V88C: -3.87
* E89C: -0.82
* E90C: 0.00
* D91C: 0.09
* G92C: -3.07
* P93C: -3.30
* P94C: -1.29
* M95C: -1.66
* R96C: -4.73
* E97C: -3.36
* I98C: -3.18
* I99C: -0.49
* L100C: -2.48
* K101C: -6.14
* V102C: 0.13
* V103C: -0.33

A selection of 4 entries from above:

* L79C: -5.63
* E90C: 0.00
* S82C: -1.27
* M52C: -2.38

The authors count -1 or higher as tolerated. Position 1 is the last residue of NS2A. Values above 0 are not proof of better growth: six high scorers were tested one by one, five grew less well than wild type and one about as well. The region was split into three libraries (1-103, 104-206, 207-308).